Here are results for one substance from patent US8716221B2 (priority 2005, dated 2014).

The data set in a line: peptide synthesis. Particulars: conjugation step.

As for “HdAEGTFTSDL SKQNleEEEAVR LFIEWLKQGG PSSGAPPPC-NH2”, the conjugation yield is 70-90%.
